A mixed list of measured activities; the numbers were collected in NIAID ChemDB.

Common to all: whole-cell or culture tests; organism: Herpes simplex virus 1; method: plaque count; read-out: EC50

Blank or dashed fields: not listed here. ECn is the concentration giving n% inhibition of infection, replication or growth. Rows are shuffled and stem from different studies.

SMILES	strain	cell line	result
CC(=O)OC[C@H]1[C@H](COC(C)=O)[C@@H](CO)O[C@H]1n1cnc2c(N)ncnc21	Clinical isolate HL-3	MEF	135 µM
O=C(NCc1ccc(Cl)cc1)c1c[nH]c2c(F)cccc2c1=O	KOS	-	16 µM
Nc1nc2c(ncn2CCC(CO)CO)c(=O)[nH]1	KOS	VERO	1.07 µM
O=C(NCc1ccc(Cl)cc1)c1cn2c3c(cc(CN4CCOCC4)cc3c1=O)OC(c1cccnc1)C2	SC16	HFF	7.2 µM
O=C(O)P(=O)(O)O	HL-34	MEF	13.6 µg/mL
CCCCCCCCCCCCCCCCOP(=O)(O)CO[C@H](CO)Cn1ccc(N)nc1=O	E-377	HFF	0.3 µM
COCc1cn([C@H]2C[C@H](O)[C@@H](CO)O2)c(=O)[nH]c1=O	ACG-resistant	RK-13	>1138 µM
Cn1cc(C(=O)NCc2ccc(Cl)cc2)c(=O)c2cc(/C=C\CO)cc(F)c21	DJL-M1	VERO	>20 µM
CCCCCCCC/C=C\CCCCCCCOCCCOP(=O)(O)CO[C@H](CO)Cn1ccc(N)nc1=O	F	HFF	0.05 µM
Nc1nc2c(ncn2COCCO)c(=O)[nH]1	E-377	HFF	0.2 µg/mL
Nc1nc2c(ncn2COCCO)c(=O)[nH]1	C42	VERO	0.3 µM
CCCCCCCC/C=C\CCCCCCCOCCCOP1(=O)CO[C@@H](Cn2ccc(N)nc2=O)CO1	HL-3	HFF	0.2 µM
Cn1cc(C(=O)NCc2ccc(Cl)cc2)c(=O)c2cc(CN3CCOCC3)ccc21	KOS-M2	VERO	>20 µM
O=c1[nH]c(=O)n([C@@H]2O[C@H](CO)[C@@H](O)[C@@H]2O)cc1/C=C/Br	V3	VERO	>1000 µM
CCCCCCCCCCCCCCCCCOC[C@H](COP1(=O)CO[C@@H](Cn2ccc(N)nc2=O)CO1)OCc1ccccc1	HL-3	HFF	>1 µM
Nc1nc2c(ncn2CC(CO)CCO)c(=O)[nH]1	KJ502	VERO	0.3 µM
O=c1[nH]c(=O)n([C@@H]2O[C@H](CO)[C@@H](O)[C@@H]2O)cc1/C=C/Br	VR-3	VERO	>1100 µM
Cc1cn([C@@H]2O[C@H](CO)[C@@H](O)[C@@H]2O)c(=O)[nH]c1=O	V3	HELF	3.1 µM
Nc1nc2c(ncn2COC(CO)CO)c(=O)[nH]1	ICI	MRC-5	0.1 µM
O=Cc1cn([C@@H]2O[C@H](CO)[C@@H](O)[C@@H]2O)c(=O)[nH]c1=O	77	HELF	80 µM
C[C@@H](c1ccccc1)N(CC(=O)Nc1ccc(-c2csc(N)n2)cc1)C(=O)c1ccncc1	-	BHK-21/C13	0.027 µM
Cc1cn([C@@H]2O[C@H](CO)[C@@H](O)[C@@H]2F)c(=O)[nH]c1=O	77	HELF	0.26 µM
CCCCCCCC/C=C\CCCCCCCCOCCOP(=O)(O)CO[C@H](CO)Cn1ccc(N)nc1=O	HL-3	HFF	0.05 µM
Nc1nc2c(ncn2CCCCO)c(=O)[nH]1	KJ502	VERO	5 µM
Nc1ncnc2c1ncn2C[C@@H](CO)OCP(=O)(O)O	Schooler	WI-38	3 µM
Nc1ncnc2c1ncn2[C@@H]1C[C@H](CO)[C@@H](O)[C@@H]1O	WT-34	VERO	10 µM
Nc1nc2c(ncn2CCCC(CO)CO)c(=O)[nH]1	C42	SIRC	1.3 µM
Cn1cc(C(=O)NCc2ccc(Cl)cc2)c(=O)c2cc(CN3CCOCC3)ccc21	L6010381	HFF	3.3 µM
Nc1nc2c(ncn2C[C@]2(CO)C[C@H]2CO)c(=O)[nH]1	Tomioka	MRC-5	0.0093 µg/mL
Nc1ncnc2c1ncn2[C@@H]1O[C@H](COP(=O)(O)O)[C@@H](O)[C@@H]1O	Clinical isolate HL-34	MEF	27 µM

A second listing of 3 rows from above:

Nc1nc2c(ncn2CCCCO)c(=O)[nH]1 ; strain: KJ502 ; cell line: VERO ; result: 5 µM
O=Cc1cn([C@@H]2O[C@H](CO)[C@@H](O)[C@@H]2O)c(=O)[nH]c1=O ; strain: 77 ; cell line: HELF ; result: 80 µM
CCCCCCCCCCCCCCCCCOC[C@H](COP1(=O)CO[C@@H](Cn2ccc(N)nc2=O)CO1)OCc1ccccc1 ; strain: HL-3 ; cell line: HFF ; result: >1 µM